Source: PubChem BioAssay AID624099 (ICCB-Longwood, 2012)

Purpose: 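Host factors E2 relies on to silence an HPV18 LCR reporter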 (primary screen)
Cell system: human C33A cervical carcinoma cells (HPV-negative) stably expressing BPV1 E2 and an HPV18 LCR luciferase reporter
Reagent: siRNA pool against human genes, 40 nM
Duration: 72 h
Detection: 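Per-well luciferase luminescence, z-scored on each plate against the plate mean and SD with control wells left out, then averaged across three replicate plates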
Scale: mean z-score and z-score: higher = stronger reporter signal, weaker E2 silencing
Active means: 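Mean z ≥ 2 together with z ≥ 2 in two or more of the three replicates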
Here is an unselected part of about 21,000 reagents tested. 497 of them (2.4%) were called active. 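Higher z means weaker E2 silencing; only reporter increases were scored, and knock-downs that hurt cell survival may mask genuine repressor factors.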 A number with no mark means an inactive call. Reagent sequences are not shown.

gene | mean z-score | z-score, replicate A | z-score, replicate B | z-score, replicate C
TUBAL3 | -0.56 | -0.23 | -0.62 | -0.84
FASTKD1 | -0.09 | -0.41 | -0.13 | 0.27
LOC389657 (retired record) | -0.23 | -0.67 | 0.01 | -0.03
DYDC1 | 0.24 | -0.13 | 0.02 | 0.83
CUEDC2 | 0.32 | 0.26 | 0.2 | 0.5
SMARCA1 | -0.59 | -0.72 | -0.44 | -0.6
TAS2R8 | 0.03 | -0.07 | 0.2 | -0.03
MRPL49 | 0.42 | 0.39 | 0.38 | 0.5
ZNF397 | 0.13 | 0.12 | 0.19 | 0.08
LOC730133 (retired record) | 0.89 | 1.02 | 0.62 | 1.04
SLIRP | -1.42 | -1.62 | -1.11 | -1.52
LOC392850 (retired record) | 0.82 | 0.82 | 0.67 | 0.97
HIVEP2 | 1.56 | 2.05 | 1.29 | 1.34
NFKBIA | 0.72 | 0.56 | 0.88 | 0.73
LOC155081 (retired record) | -1.03 | -0.88 | -1.16 | -1.04
PPM1E | -0.34 | -0.62 | -0.46 | 0.08
SPATA2 | 0.8 | 0.77 | 0.92 | 0.7
RPH3AL | -1.91 | -1.28 | -2.2 | -2.25
IL17C | -0.15 | -0.04 | -0.14 | -0.27
TRAF1 | -0.35 | -0.13 | -0.53 | -0.39
BCL2L10 | 0.76 | 0.92 | 0.62 | 0.73
ARHGAP31 | 0.53 | 0.47 | 0.66 | 0.46
SNED1 | -0.27 | -0.34 | -0.08 | -0.39
SPATA24 | -1.09 | -1.05 | -1.02 | -1.18
ZCCHC24 | 0.56 | 0.78 | 0.46 | 0.45
BAMBI | 0.32 | 0.33 | 0.03 | 0.6
DYNC2LI1 | 0.88 | 0.65 | 1.12 | 0.88

A portion taken from the entries so far, as a working copy:
gene | mean z-score | z-score, replicate A | z-score, replicate B | z-score, replicate C
FASTKD1 | -0.09 | -0.41 | -0.13 | 0.27
LOC389657 (retired record) | -0.23 | -0.67 | 0.01 | -0.03
DYDC1 | 0.24 | -0.13 | 0.02 | 0.83

More results follow.
gene | mean z-score | z-score, replicate A | z-score, replicate B | z-score, replicate C
CEP70 | -1.01 | -1.04 | -1.09 | -0.92
TMEM170A | 0.19 | 0.22 | 0.21 | 0.12
PTAR1 | 0.27 | 0.37 | 0.45 | 0
SELENOT | -0.63 | -0.62 | -0.35 | -0.9
RPL10AP3 | -0.15 | -0.13 | -0.33 | 0.02
NISCH | 0.12 | 0.14 | -0.07 | 0.27
ZNF57 | 0.83 | 0.55 | 0.95 | 1
ANAPC7 | 0.84 | 0.86 | 0.91 | 0.76
TPM2 | -0.47 | -0.25 | -0.57 | -0.58
LOC139046 (retired record) | 0.84 | 1.42 | 0.71 | 0.38
C6orf15 | -0.7 | -0.43 | -0.65 | -1.01
LOC347424 (retired record) | 1.18 | 1.48 | 0.84 | 1.23
NHP2 | 0.26 | 0.16 | 0.35 | 0.27
PLPP2 | -1.42 | -1.26 | -1.56 | -1.43
SNRPC | 0.32 | 0.3 | 0.28 | 0.38
ACP7 | -0.67 | -0.76 | -0.34 | -0.91
CYP46A1 | -0.54 | -0.54 | -0.73 | -0.35
AACSP1 | -0.23 | -0.02 | -0.22 | -0.44
CD28 | 0.1 | -0.09 | 0.28 | 0.12
USP8 | -0.48 | -0.21 | -0.74 | -0.49
GANC | 2.9 (active) | 3.07 | 2.86 | 2.77
LINC00315 | -0.8 | -0.81 | -0.8 | -0.79
PPARD | 0.02 | 0.28 | -0.16 | -0.04
TNFAIP6 | 1.9 | 1.94 | 2.2 | 1.57
LCT | -1.36 | -1.12 | -0.98 | -1.98
HSF1 | -0.83 | -0.79 | -0.6 | -1.09
DNAAF5 | -0.34 | -0.49 | -0.48 | -0.06
TBCK | -0.94 | -1.07 | -1.18 | -0.57
ADRA2A | 0.02 | -0.24 | 0.04 | 0.26
UBE2D2 | -0.26 | -0.39 | -0.4 | 0.02
